Pooled drug test results. Numbers come from NIAID ChemDB, via PubChem.

Common to all: whole-cell or culture tests; agent: HIV-1; cell line: MT-4; read-out: EC50

Blank or dashed fields: not listed here. Lines come from different laboratories, so protocols vary. ECn: concentration that inhibits the pathogen or its effect by n%.

smiles	strain	changes	method	result
Cc1cn([C@@H]2C[C@H](n3cc([N+](=O)[O-])nc3C)[C@@H](C(O)CO)O2)c(=O)[nH]c1=O			p24	>100 µM
CCCC(=O)O[C@H]1CN2CC[C@H](O)[C@@H]2[C@@H](O)[C@@H]1O	RF		MTT	100 µM
Nc1c2ccccc2nc2ccccc12			MTT	>1.2 µM
CC1(C)C(O[C@@H]2O[C@H](C(=O)O)[C@@H](O)[C@H](O)[C@H]2O[C@@H]2O[C@H](C(=O)O)[C@@H](O)[C@H](O)[C@H]2O)CC[C@]2(C)C3=CC=C4C5C[C@@](C)(C(=O)O)CC[C@]5(C)CC[C@@]4(C)[C@]3(C)CCC12	EVK		p24 / ELISA / antigen	500 µg/mL
CCCN(C)C(=O)Oc1nsnc1-c1c(Cl)ccc(N)c1Cl	clinical isolate A012B AZT-sensitive		p24	0.0038 µM
Fc1cccc(F)c1Cn1c(-c2c(F)cccc2F)nc2c(Br)cccc21		RT-Y181C	cytopathic effect / MTT	8.4 µM
CC(C)Nc1cccnc1N1CCN(C(=O)c2cc3cc(NS(C)(=O)=O)ccc3[nH]2)CC1	IIIB		MTT	0.035 µM
CC(C)c1nc(CN(C)C(=O)N[C@H](C(=O)N[C@@H](Cc2ccccc2)C[C@H](O)[C@H](Cc2ccccc2)NC(=O)OCc2cncs2)C(C)C)cs1	NL4-3		p24	<0.08 µM
Cc1ccc(NC(=O)CSc2nncnc2-c2ccccc2Cl)c([N+](=O)[O-])c1	IIIB		MTT	0.048 µM
Cc1cn([C@H]2C[C@H](N=[N+]=[N-])[C@@H](COP(=O)(Nc3cc(C(=O)Nc4cc(C(=O)Nc5cc(C(=O)NCCC#N)n(C)c5)n(C)c4)n(C)c3)OC3CCCCC3)O2)c(=O)[nH]c1=O			p24 / antigen	0.004 µM
Cc1cn(CC2CN2CP(=O)(O)O)c(=O)[nH]c1=O	IIIB		cytopathic effect / MTT	>100 µM
Cc1cn([C@H]2C[C@H](N=[N+]=[N-])[C@@H](CO)O2)c(=O)[nH]c1=O	RES056		MTT	0.009 µM
Clc1cccc(/C=N/c2nccs2)c1	IIIB		cytopathic effect / MTT	>100 µM
CCC(CO)Nc1c2ccc(Cl)cc2nc2ccc(OC)cc12			MTT	>9.6 µM
CC[C@H](C)[C@H](NC(=O)[C@H](OCc1ccccc1)[C@H](O)[C@@H](O)[C@@H](OCc1ccccc1)C(=O)N[C@H](C(=O)NC)[C@@H](C)CC)C(=O)NC			cytopathic effect / XTT	1 µM
Cc1c(O)cccc1C(=O)N[C@@H](CSc1ccccc1)[C@H](O)CN1C[C@H]2CCCC[C@H]2C[C@H]1C(=O)NC(C)(C)C	NL4-3		p24	<0.025 µM
Cc1cn([C@H]2C[C@@H](n3nnc4ccccc43)[C@H](O)[C@@H](CO)O2)c(=O)[nH]c1=O			p24	>100 µM
COC(=O)N[C@@H](Cc1c[nH]c2ccccc12)C(=O)NCCCC[C@@H](CO)N(CC(C)C)S(=O)(=O)c1ccc(N)cc1	NL4-3	SQV-resistant (PR G48V L90M)	cytopathic effect / MTT	0.395 µM
Cc1ccc(NC(=O)CSc2nncnc2-c2ccccc2Cl)c(Br)c1	RES056		MTT	>42 µM
CC(=O)c1ccc(C)cc1NC(C(N)=O)c1c(Cl)cccc1Cl	IIIB		cytopathic effect / MTT	0.0064 µM
O=C(CSc1nncnc1-c1ccccc1Cl)Nc1ccccc1[N+](=O)[O-]	IIIB		MTT	0.023 µM
Cc1cn([C@H]2C=C[C@@H](COP(=O)(Nc3cc(C(=O)NCCC(=N)N)n(C)c3)OC(C)C)O2)c(=O)[nH]c1=O			p24 / antigen	0.22 µM
O=C(O)c1cn(C2CC2)c2c(OC(F)F)c(N3CCN(c4ncccn4)CC3)c(F)cc2c1=O	IIIB		cytopathic effect / MTT	1.7 µM
CC(C)(C)NC(=O)[C@@H]1C[C@@H]2CCCC[C@@H]2CN1C[C@@H](O)[C@H](Cc1ccccc1)NC(=O)[C@H](CC(N)=O)NC(=O)c1ccc2ccccc2n1	IIIB		cytopathic effect / MTT	0.023 µM
CC(=O)Nc1cccc2c1nc(-c1c(F)cccc1F)n2Cc1c(F)cccc1F		RT-V106A	cytopathic effect / MTT	>20 µM
O=C(CSc1nncnc1-c1ccccc1Cl)Nc1ccccc1Br	IIIB		MTT	0.092 µM
Cc1cn([C@@H]2C[C@@H](n3nnc4ccccc43)[C@H](O)[C@@H](CO)O2)c(=O)[nH]c1=O			p24	>100 µM
Cc1cn([C@H]2C=C[C@@H](COP(=O)(Nc3cc(C(=O)Nc4cc(C(=O)NCCC(=N)N)n(C)c4)n(C)c3)OC(C)C)O2)c(=O)[nH]c1=O			p24 / antigen	0.2 µM
COc1ccc2nc3cc(Cl)ccc3c(N[C@@H]3CCCN4CCCC[C@H]34)c2c1			MTT	>9.3 µM
O=C(N[C@H]1c2ccccc2C[C@H]1O)[C@H](OCc1ccc(F)cc1)[C@H](O)[C@@H](O)[C@@H](OCc1ccc(F)cc1)C(=O)N[C@H]1c2ccccc2C[C@H]1O			cytopathic effect / XTT	0.2 µM
Cc1cn([C@H]2C[C@H](N=[N+]=[N-])[C@@H](CO)O2)c(=O)[nH]c1=O			p24 / antigen	0.022 µM
COc1ccc2nc3cc(Cl)ccc3c(NC3CN4CCC3CC4)c2c1			MTT	>1.9 µM
CC(=N)CCNC(=O)c1cc(NC(=O)c2cc(NC(=O)c3cc(NP(=O)(OC[C@@H]4C=C[C@H](n5cc(C)c(=O)[nH]c5=O)O4)OC4CCCCC4)cn3C)cn2C)cn1C			p24 / antigen	0.17 µM
COc1ccc2nc3cc(Cl)ccc3c(N[C@H]3CCCN4CCCC[C@H]34)c2c1			MTT	>6.4 µM
Nc1ncnc2c1ncn2CC1CN1CP(=O)(O)O	IIIB		cytopathic effect / MTT	>100 µM
Nc1ccn([C@H]2CC[C@@H](CO)O2)c(=O)n1	IIIB		MTT	1 µM
C(=N\c1nc2ccccc2s1)/c1ccccc1	IIIB		cytopathic effect / MTT	>100 µM
O=c1[nH]cnc2c1ncn2[C@H]1CC[C@@H](CO)O1	IIIB BCH-189-resistant (RT M184V)	RT-M184V	p24	70 µM
CNC(=O)[C@@H](NC(=O)[C@H](OCc1ccc(-c2ccccn2)cc1)[C@H](O)[C@@H](O)[C@@H](OCc1ccc(-c2ccccn2)cc1)C(=O)N[C@H](C(=O)NC)C(C)C)C(C)C			cytopathic effect / XTT	0.4 µM
CC(C)(C)NC(=O)[C@@H]1CN(Cc2cccnc2)CCN1C[C@@H](O)C[C@@H](Cc1ccccc1)C(=O)N[C@H]1c2ccccc2C[C@H]1O	NL4-3	SQV-resistant (PR G48V L90M)	cytopathic effect / MTT	0.254 µM
CC(C)[C@H](NC(=O)[C@H](OCc1ccccc1)[C@H](O)[C@@H](O)[C@@H](OCc1ccccc1)C(=O)NC1c2ccccc2CC1O)C(=O)NCc1ccccn1			cytopathic effect / XTT	0.2 µM
CC(C)(C)NC(=O)[C@@H]1C[C@@H]2CCCC[C@@H]2CN1C[C@@H](O)[C@H](Cc1ccccc1)NC(=O)[C@H](CC(N)=O)NC(=O)c1ccc2ccccc2n1	NL4-3	PR-L63P V82T	p24	<0.025 µM
Cn1cc(NC(=O)c2cc(NC(=O)c3cc([N+](=O)[O-])cn3C)cn2C)cc1C(=O)NCCC#N			p24 / antigen	>100 µM
COc1ccc(C=Nc2nsc3ccc(C)cc23)cc1	IIIB		cytopathic effect / MTT	>5 µM
COc1ccccc1CNC(=O)c1ccn(Cc2ccc(Cl)cc2)n1	NL4-3		cytopathic effect	2 µM
Cn1cc(NC(=O)c2cc(NC(=O)c3cc([N+](=O)[O-])cn3C)cn2C)cc1C(=O)NCCC(=N)N			p24 / antigen	>100 µM
CCCN(C)C(=O)Oc1nsnc1-c1c(Cl)ccc(C(N)=O)c1Cl	IIIB		cytopathic effect / MTT	2.9 µM
Cc1cn([C@H]2C[C@H](N=[N+]=[N-])[C@@H](COP(=O)(Nc3cc(C(=O)NCCC(=N)N)n(C)c3)OC3CCCCC3)O2)c(=O)[nH]c1=O			p24 / antigen	0.021 µM
Cc1c(O)cccc1C(=O)N[C@@H](CSc1ccccc1)[C@H](O)CN1C[C@H]2CCCC[C@H]2C[C@H]1C(=O)NC(C)(C)C	IIIB		cytopathic effect / MTT	0.054 µM
O=[N+]([O-])c1ccc(/C=N/c2nc3ccc(F)cc3s2)cc1	IIIB		cytopathic effect / MTT	>100 µM
COc1ccc2nc3cc(Cl)ccc3c(N3CCN(CCO)CC3)c2c1			MTT	>9 µM
O=C1N(Cc2ccc(CO)cc2)[C@H](Cc2ccccc2)[C@H](O)[C@@H](O)[C@@H](Cc2ccccc2)N1Cc1ccc(CO)cc1	NL4-3	PR-M46I	p24	<0.2 µM
Cc1cc(C#N)cc(C)c1Oc1nc(Nc2ccc(C#N)cc2)nc(N)c1Br	IIIB	E138K	MTT	0.014 µM
COc1cccc(C=Nc2nsc3ccccc23)c1O	IIIB		cytopathic effect / MTT	>6 µM
Cc1cn([C@H]2C[C@H](N=[N+]=[N-])[C@@H](COP(=O)(O)C(=O)O)O2)c(=O)[nH]c1=O	SCV 4005		antigen	0.016 µM
COc1ccc2nc3cc(Cl)ccc3c(Nc3ccco3)c2c1			MTT	>7 µM
Cc1cn([C@H]2C=C[C@@H](CO)O2)c(=O)[nH]c1=O			p24 / antigen	0.27 µM
Cc1cc(C#N)cc(C)c1Oc1nc(Nc2ccc(C#N)cc2)ncc1SCC(=O)N1CCSCC1		Y188L	MTT	0.1775 µM

The last 8 rows once more:

smiles	strain	changes	method	result
COc1ccc2nc3cc(Cl)ccc3c(N3CCN(CCO)CC3)c2c1			MTT	>9 µM
O=C1N(Cc2ccc(CO)cc2)[C@H](Cc2ccccc2)[C@H](O)[C@@H](O)[C@@H](Cc2ccccc2)N1Cc1ccc(CO)cc1	NL4-3	PR-M46I	p24	<0.2 µM
Cc1cc(C#N)cc(C)c1Oc1nc(Nc2ccc(C#N)cc2)nc(N)c1Br	IIIB	E138K	MTT	0.014 µM
COc1cccc(C=Nc2nsc3ccccc23)c1O	IIIB		cytopathic effect / MTT	>6 µM
Cc1cn([C@H]2C[C@H](N=[N+]=[N-])[C@@H](COP(=O)(O)C(=O)O)O2)c(=O)[nH]c1=O	SCV 4005		antigen	0.016 µM
COc1ccc2nc3cc(Cl)ccc3c(Nc3ccco3)c2c1			MTT	>7 µM
Cc1cn([C@H]2C=C[C@@H](CO)O2)c(=O)[nH]c1=O			p24 / antigen	0.27 µM
Cc1cc(C#N)cc(C)c1Oc1nc(Nc2ccc(C#N)cc2)ncc1SCC(=O)N1CCSCC1		Y188L	MTT	0.1775 µM